Share of PSTVd loop 15 variants by leaf site

The pool varies loop 15 of the PSTVd intermediate strain in the pattern GGAAACCGNNNNNNC; wild type is GGAAACCGCUACUAC (upper and lower strand joined, each 5' to 3', the first 7 letters being the upper strand, closing pairs included).

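Three N. benthamiana plants were inoculated with the whole mutant pool. Progeny were sequenced from the inoculated region (day 5), the margin of the inoculated leaf (day 10) and systemic leaves (day 12).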

Values are reads per thousand in the sample; higher means more abundant, 0 means not found.
Each site shows the three plants.
"Pool" is the share in the plasmid pool used as inoculum, on the same scale.
The inoculated region was read from the minus strand, the other sites from the plus strand.

{"sequence": "GGAAACCGUGGUCUC", "pool": "0.112", "inoculated region": "0.0491 0.0964 0.0762", "leaf margin": "0 0 0.0401", "systemic leaves": "0 0 0"}
{"sequence": "GGAAACCGUGGUGAC", "pool": "0.224", "inoculated region": "0.0164 0.0964 0.114", "leaf margin": "0.0162 0 0.0200", "systemic leaves": "0 0 0"}
{"sequence": "GGAAACCGUGGUGCC", "pool": "0.144", "inoculated region": "0.0328 0.0803 0.0952", "leaf margin": "0 0 0", "systemic leaves": "0 0 0"}
{"sequence": "GGAAACCGUGGUGGC", "pool": "0.320", "inoculated region": "0.0655 0.0161 0.114", "leaf margin": "0.0323 0 0.0401", "systemic leaves": "0 0 0"}
{"sequence": "GGAAACCGUGGUGUC", "pool": "0.208", "inoculated region": "0.164 0.0643 0.0762", "leaf margin": "0.0323 0.0223 0.0200", "systemic leaves": "0 0 0"}
{"sequence": "GGAAACCGUGGUUAC", "pool": "0.256", "inoculated region": "0.328 0.289 0.133", "leaf margin": "0.0970 0.0668 0.180", "systemic leaves": "0.0805 0.0454 0.114"}
{"sequence": "GGAAACCGUGGUUCC", "pool": "0.112", "inoculated region": "0.0983 0.0482 0.114", "leaf margin": "0 0 0.0401", "systemic leaves": "0 0 0"}
{"sequence": "GGAAACCGUGGUUGC", "pool": "0.224", "inoculated region": "0.0655 0.112 0.0952", "leaf margin": "0 0.0223 0", "systemic leaves": "0 0 0"}
{"sequence": "GGAAACCGUGGUUUC", "pool": "0.192", "inoculated region": "0.0655 0.145 0.0571", "leaf margin": "0.0162 0 0", "systemic leaves": "0 0 0"}
{"sequence": "GGAAACCGUGUAAAC", "pool": "0.256", "inoculated region": "0.115 0.0803 0.114", "leaf margin": "0 0 0", "systemic leaves": "0 0 0"}
{"sequence": "GGAAACCGUGUAACC", "pool": "0.176", "inoculated region": "0.0491 0.0964 0.0762", "leaf margin": "0.0323 0 0", "systemic leaves": "0 0 0"}
{"sequence": "GGAAACCGUGUAAGC", "pool": "0.336", "inoculated region": "0.0655 0.0803 0.114", "leaf margin": "0 0 0.0200", "systemic leaves": "0 0 0"}
{"sequence": "GGAAACCGUGUAAUC", "pool": "0.224", "inoculated region": "0.0655 0.0643 0.0571", "leaf margin": "0 0 0", "systemic leaves": "0 0 0"}
{"sequence": "GGAAACCGUGUACAC", "pool": "0.192", "inoculated region": "0.0983 0.112 0.133", "leaf margin": "0 0 0.0401", "systemic leaves": "0 0 0"}
{"sequence": "GGAAACCGUGUACCC", "pool": "0.288", "inoculated region": "0.0491 0.0643 0.0762", "leaf margin": "0.0323 0 0", "systemic leaves": "0 0 0.0228"}
{"sequence": "GGAAACCGUGUACGC", "pool": "0.272", "inoculated region": "0.115 0.0321 0.228", "leaf margin": "0 0 0", "systemic leaves": "0 0 0"}
{"sequence": "GGAAACCGUGUACUC", "pool": "0.288", "inoculated region": "0.0983 0.0643 0.0381", "leaf margin": "0.0323 0 0", "systemic leaves": "0 0 0"}
{"sequence": "GGAAACCGUGUAGAC", "pool": "0.208", "inoculated region": "0.115 0.112 0.152", "leaf margin": "0 0 0", "systemic leaves": "0 0 0"}
{"sequence": "GGAAACCGUGUAGCC", "pool": "0.224", "inoculated region": "0.246 0.209 0.171", "leaf margin": "0 0 0.0601", "systemic leaves": "0 0 0"}
{"sequence": "GGAAACCGUGUAGGC", "pool": "0.288", "inoculated region": "0.0819 0.0482 0.114", "leaf margin": "0.0162 0 0", "systemic leaves": "0 0 0"}
{"sequence": "GGAAACCGUGUAGUC", "pool": "0.336", "inoculated region": "0.164 0.129 0.286", "leaf margin": "0.0323 0 0.0200", "systemic leaves": "0 0 0"}
{"sequence": "GGAAACCGUGUAUAC", "pool": "0.224", "inoculated region": "0.278 0.353 0.438", "leaf margin": "0.178 0.178 0.140", "systemic leaves": "0.0644 0.0454 0.228"}
{"sequence": "GGAAACCGUGUAUCC", "pool": "0.288", "inoculated region": "0.115 0.177 0.171", "leaf margin": "0.0323 0.0445 0", "systemic leaves": "0 0 0"}
{"sequence": "GGAAACCGUGUAUGC", "pool": "0.256", "inoculated region": "0.164 0.225 0.190", "leaf margin": "0 0 0.0200", "systemic leaves": "0.0161 0 0"}
{"sequence": "GGAAACCGUGUAUUC", "pool": "0.384", "inoculated region": "0.262 0.273 0.381", "leaf margin": "0.291 0.200 0.100", "systemic leaves": "0.0966 0 0"}
{"sequence": "GGAAACCGUGUCAAC", "pool": "0.256", "inoculated region": "0.0983 0.0803 0.0952", "leaf margin": "0 0 0", "systemic leaves": "0 0 0"}
{"sequence": "GGAAACCGUGUCACC", "pool": "0.240", "inoculated region": "0.115 0.0643 0.0952", "leaf margin": "0.0162 0 0", "systemic leaves": "0 0 0"}
{"sequence": "GGAAACCGUGUCAGC", "pool": "0.160", "inoculated region": "0.0328 0.112 0.0571", "leaf margin": "0.0162 0 0", "systemic leaves": "0 0 0"}
{"sequence": "GGAAACCGUGUCAUC", "pool": "0.176", "inoculated region": "0.115 0.112 0.0571", "leaf margin": "0 0.0223 0", "systemic leaves": "0.0161 0 0"}
{"sequence": "GGAAACCGUGUCCAC", "pool": "0.240", "inoculated region": "0.0983 0.0643 0.0762", "leaf margin": "0.0323 0.0223 0", "systemic leaves": "0 0 0"}
{"sequence": "GGAAACCGUGUCCCC", "pool": "0.224", "inoculated region": "0.0655 0.0482 0.171", "leaf margin": "0 0 0.0401", "systemic leaves": "0 0 0"}
{"sequence": "GGAAACCGUGUCCGC", "pool": "0.192", "inoculated region": "0.0164 0.0964 0.0571", "leaf margin": "0 0 0.0200", "systemic leaves": "0 0 0"}
{"sequence": "GGAAACCGUGUCCUC", "pool": "0.176", "inoculated region": "0.0491 0.0482 0.0762", "leaf margin": "0 0 0", "systemic leaves": "0 0 0"}
{"sequence": "GGAAACCGUGUCGAC", "pool": "0.176", "inoculated region": "0.0655 0.0643 0.114", "leaf margin": "0.0162 0 0.0200", "systemic leaves": "0.0161 0 0"}
{"sequence": "GGAAACCGUGUCGCC", "pool": "0.176", "inoculated region": "0.115 0.0964 0.0952", "leaf margin": "0 0.0223 0", "systemic leaves": "0 0 0"}
{"sequence": "GGAAACCGUGUCGGC", "pool": "0.336", "inoculated region": "0.180 0.0964 0.0190", "leaf margin": "0 0.0223 0", "systemic leaves": "0 0 0"}

Extract of 3 entries:

sequence,pool,inoculated region,leaf margin,systemic leaves
GGAAACCGUGUCCUC,0.176,0.0491 0.0482 0.0762,0 0 0,0 0 0
GGAAACCGUGUAAGC,0.336,0.0655 0.0803 0.114,0 0 0.0200,0 0 0
GGAAACCGUGGUCUC,0.112,0.0491 0.0964 0.0762,0 0 0.0401,0 0 0

Sequences that differ at fixed positions probably stem from PCR or sequencing errors, and defective variants can be carried along by functional ones.
With 43,870-66,106 reads a sample, very low values are single reads.
For reference, wild type rose from 33.9 per thousand in the pool to 202, 200, 159 (inoculated region), 724, 746, 710 (leaf margin) and 856, 883, 880 (systemic leaves).

Values reported by Wu et al. 2024 (doi:10.1371/journal.ppat.1012142).